Measurements reported in PubChem BioAssay AID624099 (ICCB-Longwood, 2012).
The deposit covers about 21,000 reagents; below is an unselected part. In the full data, 497 (2.4%) are marked active. 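Higher z means weaker E2 silencing; only reporter increases were scored, and knock-downs that hurt cell survival may mask genuine repressor factors.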

- Assay: 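Host factors E2 relies on to silence an HPV18 LCR reporter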 (primary screen)
- System: human C33A cervical carcinoma cells (HPV-negative) stably expressing BPV1 E2 and an HPV18 LCR luciferase reporter
- Reagents: siRNA pool against human genes, 40 nM
- Timing: 72 h
- Measured: 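Per-well luciferase luminescence, z-scored on each plate against the plate mean and SD with control wells left out, then averaged across three replicate plates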
- Direction: mean z-score and z-score: higher = stronger reporter signal, weaker E2 silencing
- Rule for the call: 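Hit if mean z-score reaches 2 and two or more of three replicate z-scores also reach 2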

The opening 5 records, to show the layout:
| gene symbol | mean z-score | z-score, replicate A | z-score, replicate B | z-score, replicate C | call |
| --- | --- | --- | --- | --- | --- |
| GPHN | -0.62 | -0.9 | -0.38 | -0.57 | inactive |
| KRTAP15-1 | 1.6 | 1.47 | 1.9 | 1.44 | inactive |
| SIGLEC8 | 1.44 | 1.56 | 1.44 | 1.32 | inactive |
| PPP2R5D | 0.1 | 0.21 | -0.05 | 0.12 | inactive |
| INSM1 | -1.52 | -1.25 | -1.61 | -1.7 | inactive |

Main list, repeating the preview:
| gene symbol | mean z-score | z-score, replicate A | z-score, replicate B | z-score, replicate C | call |
| --- | --- | --- | --- | --- | --- |
| GPHN | -0.62 | -0.9 | -0.38 | -0.57 | inactive |
| KRTAP15-1 | 1.6 | 1.47 | 1.9 | 1.44 | inactive |
| SIGLEC8 | 1.44 | 1.56 | 1.44 | 1.32 | inactive |
| PPP2R5D | 0.1 | 0.21 | -0.05 | 0.12 | inactive |
| INSM1 | -1.52 | -1.25 | -1.61 | -1.7 | inactive |
| GJA4 | -0.41 | -0.25 | -0.56 | -0.43 | inactive |
| SPDYE12 | -0.25 | -0.66 | 0.48 | -0.59 | inactive |
| LOC143034 (retired record) | -0.1 | -0.21 | -0.15 | 0.05 | inactive |
| LINC02789 | 0.47 | 0.66 | 0.67 | 0.08 | inactive |
| SAP18 | 0.19 | -0.08 | 0.14 | 0.51 | inactive |
| OTULIN | -0.13 | 0.41 | -0.41 | -0.4 | inactive |
| AKAP3 | -0.52 | -0.46 | -0.51 | -0.6 | inactive |
| BLM | -0.13 | -0.1 | -0.19 | -0.12 | inactive |
| OR2A4 | -0.59 | -0.58 | -0.63 | -0.57 | inactive |
| FKBP4 | 1.17 | 1.78 | 0.93 | 0.8 | inactive |
| SREBF2 | 0.23 | 0.11 | 0.37 | 0.22 | inactive |
| COL4A4 | 0.11 | 0.14 | -0.01 | 0.2 | inactive |
| HTRA2 | -0.5 | -0.66 | -0.41 | -0.42 | inactive |
| NUBPL | -1.32 | -1.02 | -1.53 | -1.39 | inactive |
| EMC2 | 1.23 | 1.3 | 1.41 | 0.97 | inactive |
| CFAP68 | -0.36 | -0.7 | -0.09 | -0.29 | inactive |
| RAD51C | -0.2 | -0.02 | -0.17 | -0.4 | inactive |
| TGM3 | 0.11 | 0.09 | 0.13 | 0.12 | inactive |
| SELENOH | -1.88 | -1.55 | -2.1 | -1.99 | inactive |
| OR11H1 | -0.11 | -0.56 | 0.12 | 0.1 | inactive |
| TSGA10IP | -0.63 | -0.54 | -0.87 | -0.48 | inactive |
| CCS | -1.06 | -1.07 | -1.24 | -0.87 | inactive |
| LOC402295 (retired record) | 0.22 | 0.26 | 0.2 | 0.21 | inactive |
| S100B | -0.28 | -0.2 | -0.35 | -0.29 | inactive |
| ZNF362 | 0.94 | 0.95 | 0.69 | 1.19 | inactive |
| LRRC23 | 3.87 | 4.09 | 4.11 | 3.4 | active |
| RASA1 | 0.3 | 0.15 | 0.19 | 0.55 | inactive |
| SLC9D1 | -1.07 | -0.37 | -1.25 | -1.58 | inactive |
| ATP5IF1 | -1.16 | -1.06 | -1.45 | -0.96 | inactive |
| SLC4A5 | -0.42 | -0.13 | -0.35 | -0.77 | inactive |
| SLC35C1 | -0.72 | -0.66 | -0.97 | -0.52 | inactive |
| FKBP10 | -0.24 | 0.4 | -0.22 | -0.89 | inactive |
| FAM186A | 0.1 | -0.03 | 0.14 | 0.2 | inactive |
| AVPR1B | 0.69 | 1.03 | 0.4 | 0.63 | inactive |
| TLNRD1 | 1.76 | 1.63 | 2.29 | 1.36 | inactive |
| HOXB8 | 0.73 | 1.09 | 0.3 | 0.78 | inactive |
| ZNF394 | -0.12 | -0.09 | -0.18 | -0.1 | inactive |
| CTSA | -0.17 | -0.2 | -0.25 | -0.08 | inactive |
| KREMEN2 | -0.07 | 0.16 | -0.05 | -0.3 | inactive |
| DENND4C | -0.44 | -0.33 | -0.55 | -0.45 | inactive |
| TPX2 | 0.56 | 0.56 | 0.47 | 0.66 | inactive |
| SLC7A1 | 0.96 | 0.93 | 0.8 | 1.14 | inactive |
| PRAF2 | -1.58 | -1.28 | -1.87 | -1.58 | inactive |
| ACSM2B | 1.5 | 1.06 | 1.58 | 1.85 | inactive |
| DIS3L | -0.41 | -0.59 | -0.51 | -0.14 | inactive |
| VKORC1L1 | -0.19 | -0.25 | 0.04 | -0.35 | inactive |
| MAGEA5P | -1.67 | -1.64 | -1.75 | -1.61 | inactive |
| ARID4B | -1.31 | -1.59 | -1.34 | -1 | inactive |
| POP5 | 1.69 | 2.1 | 1.54 | 1.44 | inactive |
| LOC389301 (retired record) | 0.8 | 0.94 | 0.93 | 0.54 | inactive |
| SPAG8 | -0.28 | -0.17 | -0.4 | -0.28 | inactive |
| TSSK1B | 1.37 | 1.45 | 0.91 | 1.74 | inactive |
